Assay results published in US8158670B2 (priority 1996, dated 2012).

How the values were obtained:
[1] = test system: target (BO54 and M14) and non-target (HT29) cells; experiment: MTT metabolic activity after 24 hours exposure, target and non-target cells; assay type: cell-based; conditions: 24-hour incubation, 16-18 hours recovery
[2] = test system: target cell (BO54 and A375) or non-target cell (HT29); conditions: 5 minute exposure, 48 hours recovery; conjugates at the lower doses
[3] = test system: BO54 marker-positive smooth muscle cells; experiment: MTT metabolic activity after 24 hours exposure; assay type: cell-based, baboon; conditions: treated for 24 hours in vitro, overnight recovery
[4] = test system: BO54 arterial smooth muscle cells; experiment: Protein synthesis (3H-leucine) after 5 minute pulse; assay type: cell-based, baboon
[5] = test system: A375 m/m marker-positive cells; experiment: as above; assay type: cell-based, human
[6] = test system: BO54 marker-positive smooth muscle cells; experiment: MTT metabolic activity 48 hours after 5 minute pulse; assay type: cell-based, baboon; conditions: 48 hour recovery period
[7] = test system: HT29 marker-negative cells; experiment: Protein synthesis (3H-leucine) after 5 minute pulse; assay type: cell-based
[8] = short-term, 3H-leucine for 4 hours immediately after

Roridin A was tested, and the “metabolic activity measured in the MTT assay” value [1] was “significantly decreased”, the “metabolic activity (MTT) over the long-term” value [2] was “non-specifically inhibitory to target and non-target cell types” and the “cytotoxicity (MTT metabolic activity)” value [3] was “undesirable cytotoxicity”. The protein synthesis ([4]; long-term, 50 ng/ml) was 98 % of control, the protein synthesis ([4]; long-term, 100 ng/ml) was 46 % of control and the protein synthesis ([4]; long-term, 200 ng/ml) was 27 % of control. For the same substance, the protein synthesis ([4]; short-term, 50 ng/ml) was 90 % of control, the protein synthesis ([4]; short-term, 100 ng/ml) was 66 % of control and the protein synthesis ([4]; short-term, 200 ng/ml) was 60 % of control. For the same substance, the “protein synthesis (3H-leucine incorporation)” value ([5]; long-term, 16-18 hour recovery period before 3H-leucine) was “manifest even after a 16-18 hour recovery period”, the “protein synthesis (3H-leucine incorporation)” value [5, 8] was “non-specifically inhibitory to test cells” and the “metabolic activity (MTT)” value [6] was “non-specifically cytotoxic”. The “protein synthesis (3H-leucine incorporation)” value ([7]; short-term and long-term effects) was “dose-response inhibition of cellular protein synthesis” and the “protein synthesis (3H-leucine incorporation)” value [7, 8] was “nonspecifically cytotoxic”.
